Literature values, collected in PMC4728504, “Determination of FVIIa-sTF Inhibitors in Toxic Microcystis Cyanobacteria by LC-MS Technique” (Marine Drugs, 2015).

Biological target: thrombin (Homo sapiens, UniProt P00734)
Details: cited from earlier work

oscillarin
thrombin inhibition, in words: fVIIa and thrombin inhibitors
